This is an account of results in ChEMBL document CHEMBL5390309, “Characterization of 2,4-Dianilinopyrimidines Against Five P. falciparum Kinases PfARK1, PfARK3, PfNEK3, PfPK9, and PfPKB” (2023).

SMILES strings stand for the structures.

For this assay, the target named is T1, Glycogen synthase kinase 3 (Plasmodium falciparum (isolate 3D7)) (UniProt O77344).
T1 sequence (whole entry): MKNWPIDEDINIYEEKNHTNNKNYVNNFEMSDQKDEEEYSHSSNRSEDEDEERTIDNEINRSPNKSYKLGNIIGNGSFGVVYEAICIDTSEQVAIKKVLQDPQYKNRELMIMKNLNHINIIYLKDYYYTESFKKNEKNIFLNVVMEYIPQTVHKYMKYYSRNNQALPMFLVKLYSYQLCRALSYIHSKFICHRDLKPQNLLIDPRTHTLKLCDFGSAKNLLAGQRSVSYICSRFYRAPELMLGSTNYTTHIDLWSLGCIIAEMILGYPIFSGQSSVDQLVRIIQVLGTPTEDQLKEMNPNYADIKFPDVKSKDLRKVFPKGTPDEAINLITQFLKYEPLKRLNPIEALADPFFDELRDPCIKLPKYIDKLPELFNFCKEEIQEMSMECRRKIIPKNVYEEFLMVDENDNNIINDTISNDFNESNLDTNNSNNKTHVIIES
Nature of the assay: Inhibition of Plasmodium falciparum GSK3 assessed as remaining activity at 1 uM incubated for 2 hrs by luciferin-reagent based luminometer analysis relative to control.

Take `COc1cc(N2CCOCC2)ccc1Nc1ncc(Cl)c(Nc2ccccc2NS(C)(=O)=O)n1`: the Activity turned out to be 94%.
